Measured values from several laboratories, pooled; numbers as filed in NIAID ChemDB.

All rows: tests in culture; agent: Staphylococcus aureus; read-out: MIC

Conditions beyond the fields shown may differ between rows. An empty or dashed field is not shown.

smiles | strain or isolate | value
CC(=O)NC[C@H]1CN(c2ccc(C(=O)Nc3ncc[nH]3)c(F)c2)C(=O)O1 | ATCC 29213 (linezolid-resistant) | >64 µg/mL
CCC1CN(c2c(F)cc3c(=O)c(C(=O)O)cn(C4CC4)c3c2OC)CCN1 | - | 0.11 µg/mL
Cc1c(NC(C)C)c(F)cc2c(=O)c(C(=O)O)cn(-c3cc(N)c(F)cc3F)c12 | W806 (methicillin-resistant) | 0.25 µg/mL
CC(CO)Nc1cc2c(cc1F)c(=O)c(C(=O)O)cn2C1CC1 | ATCC 6538P | 12.5 µg/mL
COc1c(CN(C)C)cccc1C1OC(c2ccncc2)=NN1C(C)=Nc1cccc(F)c1 | MTCC96 | 6.25 µg/mL
CC(=O)NC[C@H]1CN(c2ccc(C(=O)Nc3cccnc3)c(F)c2)C(=O)O1 | ATCC 29213 (linezolid-resistant) | >64 µg/mL
O=C(CSc1ccccc1)NC[C@H]1CN(c2ccc(N3CCOCC3)c(F)c2)C(=O)O1 | ATCC 29213 (linezolid-resistant) | >64 µg/mL
Nc1nc(-n2cc(C(=O)O)c(=O)c3cc(F)c(N4CC(N)C4)c(Br)c32)c(F)cc1F | 209P | <0.013 µg/mL
CC[C@H]1OC(=O)[C@H](C)C(=O)[C@H](C)[C@@H](O[C@@H]2O[C@H](C)C[C@H](N(C)C)[C@H]2O)[C@@]2(C)C[C@@H](C)C(=NC(C)=O)[C@H](C)[C@@H](OC/C(=N\OCc3ccc(C(N)=O)cc3)CO2)[C@]1(C)O | 33591 (erythromycin methicillin-resistant) | >64 µg/mL
O=C1O[C@@H](CNc2ccon2)CN1c1ccc(-n2cnc(CO)c2)c(F)c1 | 122 (novobiocin-resistant) | 0.5 µg/mL
C=C1COC2[C@@H](C)C(=NC(C)=O)[C@H](C)C[C@@](C)(OC1)[C@H](O[C@@H]1O[C@H](C)C[C@H](N(C)C)[C@H]1O)[C@@H](C)C(=O)[C@@H](C)C(=O)O[C@H](CC)[C@@]2(C)O | 29213 (erythromycin-susceptible) | 1 µg/mL
O=C(Cc1cccc(Br)c1)NC[C@H]1CN(c2ccc(N3CCOCC3)c(F)c2)C(=O)O1 | ATCC 29213 (linezolid-resistant) | >64 µg/mL
CCCNCCCNc1cc2c(cc1F)c(=O)c(C(=O)O)cn2C1CC1 | ATCC 5278 (methicillin-resistant) | 25 µg/mL
CC[C@H]1OC(=O)[C@H](C)C(=O)[C@H](C)[C@@H](O[C@@H]2O[C@H](C)C[C@H](N(C)C)[C@H]2O)[C@@]2(C)C[C@@H](C)C(=NC(C)=O)[C@H](C)[C@@H](OC/C(=N\Oc3ccccc3)CO2)[C@]1(C)O | 27660 (erythromycin-resistant) | 0.5 µg/mL
CC(=O)NC[C@H]1CN(c2ccc(OC3CCN(C(C)=O)CC3)nc2)C(=O)O1 | OC2878 methicillin-resistant | >128 µg/mL
CC[C@H]1OC(=O)[C@H](C)C(=O)[C@H](C)[C@@H](O[C@@H]2O[C@H](C)C[C@H](N(C)C)[C@H]2O)[C@@]2(C)C[C@@H](C)C(=NC(C)=O)[C@H](C)[C@@H](OC/C(=N\Oc3ccc(-c4cnccn4)s3)CO2)[C@]1(C)O | 33591 (erythromycin methicillin-resistant) | >64 µg/mL
O=C1O[C@@H](COc2cnsn2)CN1c1ccc(-n2ccnc2)c(F)c1 | 004 (methicillin quinolone-resistant) | 0.5 µg/mL
CO/N=C/c1ccc(/C=C/C(=O)NC[C@H]2CN(c3ccc(C(N)=O)c(F)c3)C(=O)O2)cc1 | ATCC 29213 (linezolid-resistant) | >64 µg/mL
CC(=O)NCC1CN(c2ccc(N3CCN(c4ccccn4)CC3)c(F)c2)C(=O)O1 | ATCC 29213 (linezolid-resistant) | >64 µg/mL
O=C1O[C@@H](COc2ncccn2)CN1c1ccc(C2=CCOCC2)c(F)c1 | 004 (methicillin quinolone-resistant) | 8 µg/mL
CC(C)(C)n1cc(C(=O)O)c(=O)c2cc(F)c(N3C[C@H]4C[C@@H]3CN4)nc21 | A9537 | 0.03 µg/mL
Nc1nc(-n2cc(C(=O)O)c(=O)c3cc(F)c(N4CC(N)C4)cc32)c(F)cc1F | 209P | 0.1 µg/mL
CC[C@H]1OC(=O)[C@H](C)C(=O)[C@H](C)[C@@H](O[C@@H]2O[C@H](C)C[C@H](N(C)C)[C@H]2O)[C@@]2(C)C[C@@H](C)C(=NC(C)=O)[C@H](C)C(OC/C(=C\c3ccccc3)CO2)[C@]1(C)O | 33591 (erythromycin methicillin-resistant) | >64 µg/mL
Cc1c(NCCCO)c(F)cc2c(=O)c(C(=O)O)cn(-c3cc(N)c(F)cc3F)c12 | W44 (methicillin-resistant) | 0.5 µg/mL
CC[C@H]1OC(=O)[C@H](C)C(=O)[C@H](C)[C@@H](O[C@@H]2O[C@H](C)C[C@H](N(C)C)[C@H]2O)[C@@]2(C)C[C@@H](C)C(=NC(C)=O)[C@H](C)C(OC/C(=N\OCc3ccccc3)CO2)[C@]1(C)O | 27660 (erythromycin-resistant) | 0.13 µg/mL
COC(CNc1cc2c(cc1F)c(=O)c(C(=O)O)cn2C1CC1)OC | ATCC 5278 (methicillin-resistant) | >100 µg/mL
CC[C@H]1OC(=O)[C@H](C)[C@@H](O[C@H]2C[C@@](C)(OC)[C@@H](O)[C@H](C)O2)[C@H](C)[C@@H](O[C@H]2O[C@@H](C)C[C@@H](N(C)C)[C@@H]2O)[C@](C)(O)C[C@@H](C)C(=O)[C@H](C)[C@@H](O)[C@]1(C)O | 33591 (erythromycin methicillin-resistant) | >64 µg/mL
CN(C)c1cc(NC(=O)CNC(C)(C)C)c(O)c2c1C[C@H]1C[C@H]3[C@H](N(C)C)C(=O)C(C(N)=O)=C(O)[C@@]3(O)C(=O)C1=C2O | Oxacillin-resistant | ≤0.25 µg/mL
Cc1cccnc1OC[C@H]1CN(c2ccc(C3=CCOCC3)c(F)c2)C(=O)O1 | 004 (methicillin quinolone-resistant) | 4 µg/mL
O=C(/C=C/c1ccc(/C=N/O)cc1)NC[C@H]1CN(c2ccc(N3CCOCC3)c(F)c2)C(=O)O1 | ATCC 29213 (linezolid-resistant) | >64 µg/mL
CC[C@H]1OC(=O)[C@H](C)C(=O)[C@H](C)[C@@H](O[C@@H]2O[C@H](C)C[C@H](N(C)C)[C@H]2O)[C@@]2(C)C[C@@H](C)C(=NC(C)=O)[C@H](C)C(OC/C(=N\OCC#Cc3cccc(N)n3)CO2)[C@]1(C)O | 27660 (erythromycin-resistant) | 0.13 µg/mL
CC(=O)NC[C@H]1CN(c2ccc(NC(=O)c3cccnc3)c(F)c2)C(=O)O1 | ATCC 29213 (linezolid-resistant) | >64 µg/mL
Nc1ccc(OC[C@H]2CN(c3ccc(C4=CCOCC4)c(F)c3)C(=O)O2)cn1 | 122 (novobiocin-resistant) | 4 µg/mL
CCOC(CNc1cc2c(cc1F)c(=O)c(C(=O)O)cn2C1CC1)OCC | ATCC 6538P | >100 µg/mL
CC(=O)NC[C@H]1CN(c2ccc(NC(=O)c3ccc(F)o3)c(F)c2)C(=O)O1 | ATCC 29213 (linezolid-resistant) | >64 µg/mL
CO/N=C1\CN(c2nc3c(cc2F)c(=O)c(C(=O)O)cn3C2CC2)CC1CN | Giorgio | ≤0.008 µg/mL
CC(=O)NC[C@H]1CN(c2ccc(NC(=O)c3ccc(Br)o3)c(F)c2)C(=O)O1 | ATCC 29213 (linezolid-resistant) | >64 µg/mL
CC(=O)NC[C@H]1CN(c2ccc(OC3CCN(C(=O)c4ccco4)CC3)c(F)c2)C(=O)O1 | OC4172 methicillin-susceptible | 32 µg/mL
CC(=O)NC[C@H]1CN(c2ccc(C(=O)Nc3nc4ccccc4s3)c(F)c2)C(=O)O1 | ATCC 29213 (linezolid-resistant) | >64 µg/mL
Cc1ccnc(OC[C@H]2CN(c3ccc(C4=CCOCC4)c(F)c3)C(=O)O2)c1 | 004 (methicillin quinolone-resistant) | 1 µg/mL
CC[C@H]1OC(=O)[C@H](C)C(=O)[C@H](C)[C@@H](O[C@@H]2O[C@H](C)C[C@H](N(C)C)[C@H]2O)[C@@]2(C)C[C@@H](C)C(=NC(C)=O)[C@H](C)[C@@H](OC/C(=N\OCC#Cc3ccc(N)nc3)CO2)[C@]1(C)O | 27660 (erythromycin-resistant) | 0.13 µg/mL
O=C(C(O)Cn1cccn1)N1CC=C(c2c(F)cc(N3C[C@H](COc4ccon4)OC3=O)cc2F)CC1 | 122 (novobiocin-resistant) | 1 µg/mL
N#CCNc1cc2c(cc1F)c(=O)c(C(=O)O)cn2-c1ccc(F)cc1F | ATCC 6538P | 3.1 µg/mL
COc1c(CN(C)C)cccc1C1OC(c2ccncc2)=NN1C(C)=Nc1ccccc1Cl | MTCC96 | 6.25 µg/mL
Nc1nc(-n2cc(C(=O)O)c(=O)c3cc(F)c(N4CC(O)C4)c(F)c32)c(F)cc1F | 209P | 0.025 µg/mL
CC(=O)NC[C@H]1CN(c2ccc(OC3CCN(C(=O)COCc4ccccc4)CC3)nc2)C(=O)O1 | OC4172 methicillin-susceptible | 128 µg/mL
CCNc1c(F)cc2c(=O)c(C(=O)O)cn(-c3cc(N)c(F)cc3F)c2c1C | SMITH | <0.004 µg/mL
O=C(/C=C/c1ccc(F)cc1)NC[C@H]1CN(c2ccc(N3CCOCC3)c(F)c2)C(=O)O1 | ATCC 29213 (linezolid-resistant) | >64 µg/mL
CC(=O)NC[C@H]1CN(c2ccc(OC3CCN(C(=O)c4cccs4)CC3)c(F)c2)C(=O)O1 | OC4172 methicillin-susceptible | 16 µg/mL
O=C(CO)N1CC=C(c2c(F)cc(N3C[C@H](COc4ccon4)OC3=O)cc2F)CC1 | 078 (oxford) | 0.5 µg/mL
Cc1cn(-c2ccc(N3C[C@H](CSC4C=NN=N4)OC3=O)cc2F)cn1 | 004 (methicillin quinolone-resistant) | 32 µg/mL
CC[C@H]1OC(=O)[C@H](C)C(=O)[C@H](C)[C@@H](O[C@@H]2O[C@H](C)C[C@H](N(C)C)[C@H]2O)[C@@]2(C)C[C@@H](C)C(=NC(C)=O)[C@H](C)[C@@H](OC/C(=N\Oc3ccc(-n4cccn4)nc3)CO2)[C@]1(C)O | 33591 (erythromycin methicillin-resistant) | >64 µg/mL
CC(=O)NC[C@H]1CN(c2ccc(C(=O)Nc3ncn[nH]3)c(F)c2)C(=O)O1 | ATCC 29213 (linezolid-resistant) | >64 µg/mL
CC(=O)NC[C@H]1CN(c2ccc(NC(=O)c3ccc(C=O)o3)c(F)c2)C(=O)O1 | ATCC 29213 (linezolid-resistant) | >64 µg/mL
CS(=O)(=O)NC1CCN(c2ccc(N3C[C@H](COc4ccon4)OC3=O)cc2F)CC1 | 004 (methicillin quinolone-resistant) | 8 µg/mL
CSc1ccc(NC(=O)c2ccc(N3C[C@H](CNC(C)=O)OC3=O)cc2F)cn1 | ATCC 29213 (linezolid-resistant) | >64 µg/mL
CC[C@H]1OC(=O)[C@H](C)C(=O)[C@H](C)[C@@H](O[C@@H]2O[C@H](C)C[C@H](N(C)C)[C@H]2O)[C@@]2(C)C[C@@H](C)C(=NC(C)=O)[C@H](C)C(OC/C(=C\C#Cc3ccc(N)cc3)CO2)[C@]1(C)O | 27660 (erythromycin-resistant) | 0.13 µg/mL
CC(C)(O)CCCCNc1cc2c(cc1F)c(=O)c(C(=O)O)cn2C1CC1 | ATCC 5278 (methicillin-resistant) | >100 µg/mL
CC(=O)NC[C@H]1CN(c2ccc(OC3CCN(c4ncccn4)CC3)c(F)c2)C(=O)O1 | OC4172 methicillin-susceptible | 32 µg/mL
CC(C)(C)n1cc(C(=O)O)c(=O)c2cc(F)c(N3C[C@@H]4C[C@H]3CN4)nc21 | A9537 | 0.06 µg/mL

A second listing of 7 rows from above:

smiles,strain or isolate,value
O=C(C(O)Cn1cccn1)N1CC=C(c2c(F)cc(N3C[C@H](COc4ccon4)OC3=O)cc2F)CC1,122 (novobiocin-resistant),1 µg/mL
CC(=O)NC[C@H]1CN(c2ccc(NC(=O)c3ccc(C=O)o3)c(F)c2)C(=O)O1,ATCC 29213 (linezolid-resistant),>64 µg/mL
O=C(/C=C/c1ccc(/C=N/O)cc1)NC[C@H]1CN(c2ccc(N3CCOCC3)c(F)c2)C(=O)O1,ATCC 29213 (linezolid-resistant),>64 µg/mL
CC(=O)NCC1CN(c2ccc(N3CCN(c4ccccn4)CC3)c(F)c2)C(=O)O1,ATCC 29213 (linezolid-resistant),>64 µg/mL
CC[C@H]1OC(=O)[C@H](C)C(=O)[C@H](C)[C@@H](O[C@@H]2O[C@H](C)C[C@H](N(C)C)[C@H]2O)[C@@]2(C)C[C@@H](C)C(=NC(C)=O)[C@H](C)[C@@H](OC/C(=N\Oc3ccc(-c4cnccn4)s3)CO2)[C@]1(C)O,33591 (erythromycin methicillin-resistant),>64 µg/mL
CC[C@H]1OC(=O)[C@H](C)C(=O)[C@H](C)[C@@H](O[C@@H]2O[C@H](C)C[C@H](N(C)C)[C@H]2O)[C@@]2(C)C[C@@H](C)C(=NC(C)=O)[C@H](C)C(OC/C(=N\OCC#Cc3cccc(N)n3)CO2)[C@]1(C)O,27660 (erythromycin-resistant),0.13 µg/mL
CC[C@H]1OC(=O)[C@H](C)C(=O)[C@H](C)[C@@H](O[C@@H]2O[C@H](C)C[C@H](N(C)C)[C@H]2O)[C@@]2(C)C[C@@H](C)C(=NC(C)=O)[C@H](C)C(OC/C(=C\C#Cc3ccc(N)cc3)CO2)[C@]1(C)O,27660 (erythromycin-resistant),0.13 µg/mL